This is an account of results in patent publication US20190375795A1.

Common to all, as to assay: cell-based or functional assay
The target in one assay is T1, hERG, Q12809.
T1 chain: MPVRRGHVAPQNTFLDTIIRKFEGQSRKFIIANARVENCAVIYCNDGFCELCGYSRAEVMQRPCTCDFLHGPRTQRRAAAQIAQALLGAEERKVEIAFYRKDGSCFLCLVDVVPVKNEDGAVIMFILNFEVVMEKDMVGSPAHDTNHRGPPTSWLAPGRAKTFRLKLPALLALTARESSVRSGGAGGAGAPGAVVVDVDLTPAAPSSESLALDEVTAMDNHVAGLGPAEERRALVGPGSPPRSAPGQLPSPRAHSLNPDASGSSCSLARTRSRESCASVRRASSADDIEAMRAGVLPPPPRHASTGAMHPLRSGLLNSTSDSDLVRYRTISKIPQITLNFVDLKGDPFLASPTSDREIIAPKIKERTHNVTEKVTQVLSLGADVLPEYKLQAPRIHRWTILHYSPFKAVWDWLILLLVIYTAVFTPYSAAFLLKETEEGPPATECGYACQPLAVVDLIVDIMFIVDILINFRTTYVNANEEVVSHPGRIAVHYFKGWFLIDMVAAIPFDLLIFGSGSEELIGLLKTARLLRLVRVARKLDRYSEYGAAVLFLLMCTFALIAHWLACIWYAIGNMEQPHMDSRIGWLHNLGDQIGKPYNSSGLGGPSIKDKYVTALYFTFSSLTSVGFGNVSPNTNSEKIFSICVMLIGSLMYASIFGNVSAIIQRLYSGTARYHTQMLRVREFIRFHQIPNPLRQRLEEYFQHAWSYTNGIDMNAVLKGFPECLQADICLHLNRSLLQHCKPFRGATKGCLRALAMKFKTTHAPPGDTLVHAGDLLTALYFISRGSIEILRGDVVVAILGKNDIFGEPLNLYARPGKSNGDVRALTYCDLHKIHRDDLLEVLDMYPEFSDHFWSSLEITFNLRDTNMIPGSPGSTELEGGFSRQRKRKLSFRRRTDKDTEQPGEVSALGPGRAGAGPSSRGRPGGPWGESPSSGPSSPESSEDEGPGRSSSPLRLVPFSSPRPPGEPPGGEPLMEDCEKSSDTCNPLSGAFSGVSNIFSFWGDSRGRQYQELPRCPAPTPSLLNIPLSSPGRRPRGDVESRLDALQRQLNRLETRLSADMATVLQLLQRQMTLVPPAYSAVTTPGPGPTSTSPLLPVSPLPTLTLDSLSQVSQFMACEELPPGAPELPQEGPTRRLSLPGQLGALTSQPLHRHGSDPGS

Assay [1] concerns the target human Kv1.3 (hKv1.3) channel (human), P22001.
For the next assay, the target named is T2, Kv1.1, Q09470.
T2 chain: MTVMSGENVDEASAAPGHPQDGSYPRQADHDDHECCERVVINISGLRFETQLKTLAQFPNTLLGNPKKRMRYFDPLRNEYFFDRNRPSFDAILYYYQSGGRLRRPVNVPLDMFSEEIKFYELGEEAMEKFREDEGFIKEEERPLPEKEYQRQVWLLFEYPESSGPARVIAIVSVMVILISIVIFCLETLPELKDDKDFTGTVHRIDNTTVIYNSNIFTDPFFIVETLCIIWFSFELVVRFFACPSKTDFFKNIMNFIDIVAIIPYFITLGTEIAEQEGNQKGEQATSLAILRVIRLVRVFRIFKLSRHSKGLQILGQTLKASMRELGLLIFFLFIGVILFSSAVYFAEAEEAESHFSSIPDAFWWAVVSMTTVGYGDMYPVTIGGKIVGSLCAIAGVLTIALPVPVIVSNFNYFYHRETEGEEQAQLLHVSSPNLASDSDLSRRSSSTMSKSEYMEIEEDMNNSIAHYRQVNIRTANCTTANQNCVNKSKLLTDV

In a further assay the target is T3, Kv1.2, P16389.
T3 chain: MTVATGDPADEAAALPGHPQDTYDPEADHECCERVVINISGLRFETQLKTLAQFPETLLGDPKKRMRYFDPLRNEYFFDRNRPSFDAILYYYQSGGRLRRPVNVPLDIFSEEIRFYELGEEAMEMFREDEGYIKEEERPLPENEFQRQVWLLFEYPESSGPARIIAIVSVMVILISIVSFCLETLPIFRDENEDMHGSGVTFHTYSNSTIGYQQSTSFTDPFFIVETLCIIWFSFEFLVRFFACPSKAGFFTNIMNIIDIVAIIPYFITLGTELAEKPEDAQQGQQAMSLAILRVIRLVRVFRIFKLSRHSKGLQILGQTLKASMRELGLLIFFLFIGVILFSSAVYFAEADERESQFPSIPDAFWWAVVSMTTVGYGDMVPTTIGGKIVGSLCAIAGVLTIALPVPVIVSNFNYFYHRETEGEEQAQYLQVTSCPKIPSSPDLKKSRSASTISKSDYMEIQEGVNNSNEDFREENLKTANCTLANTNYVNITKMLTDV

Residue numbers refer to the chain shown, from its start.

B1: cgtx-544(Mix) (peptide)
peptide: TIINVKCTSPKQCLPPCKAQTGCPYGKCMNRKCKCNRC
modifications: not checked
For B1, in the assay with hERG, Q12809, the Normalized Block of hERG current at 5 µM (patch clamp, HEK cells) was 0.04 and the Normalized Block of hERG current at 10 µM (patch clamp, HEK cells) is 0.07. For the same molecule, in assay [1], the IC50, block of Kv1.3 current, peptide in human plasma, time point 0 h was 20.9 nM and the IC50, block of Kv1.3 current, peptide in rat plasma, time point 0 h was determined as 15 nM.

B2: cgtx-544(Sing) (peptide)
peptide: B1 peptide
modifications: not checked
Molecule B2 showed an IC50, block of Kv1.1 current (Patchliner, Sf21 cells) with Kv1.1, Q09470 of 6000 nM. The IC50, block of Kv1.2 current (Patchliner, stably transfected CHO cells) with Kv1.2, P16389 came to 2500 nM. In assay [1], the IC50, block of Kv1.3 current after about 20 min incubation (patch clamp) worked out at 0.9 nM and the IC50, block of Kv1.3 current, peptide in human blood serum was 7 nM.

B3: cgtx 543 (peptide)
peptide: GVPINVSCTGSPQCIKPCKDATGCPYGKCMNRKCKCNRC
modifications: not checked
In the assay with hERG, Q12809, B3 came in with a Normalized Block of hERG current at 8.5 µM (patch clamp, HEK cells) of -0.03 and a Normalized Block of hERG current at 17 µM (patch clamp, HEK cells) of 0.01.

B4: cgtx 547 (peptide)
peptide: QFTNVSCTTSKECWSVCQRLTGCPYGKCMNRKCKCNRC
modifications: not checked
In the assay with hERG, Q12809, B4 yielded a Normalized Block of hERG current at 5.5 µM (patch clamp, HEK cells) of 0.07 and a Normalized Block of hERG current at 11 µM (patch clamp, HEK cells) of 0.12.

B5: cgtx 539 (peptide)
peptide: ASCRTPKQCARPCRKQTGCPYGKCMNRKCKCNRC
modifications: not checked
In the assay with hERG, Q12809, B5 came in with a Normalized Block of hERG current at 20 µM (patch clamp, HEK cells) of 0.16 and a Normalized Block of hERG current at 40 µM (patch clamp, HEK cells) of 0.19.

B6: cgtx 541 (peptide)
peptide: ARCRTPRDCADPCRKETGCPYGKCMNRKCRCNRC
modifications: not checked
In the assay with hERG, Q12809, B6 showed a Normalized Block of hERG current at 2.5 µM (patch clamp, HEK cells) of 0.09 and a Normalized Block of hERG current at 5 µM (patch clamp, HEK cells) of 0.16.

B7: cgtx 542 (peptide)
peptide: B6 peptide with P6S, D8N, D11K, E16Q
modifications: not checked
In the assay with hERG, Q12809, B7 displayed a Normalized Block of hERG current at 1.5 µM (patch clamp, HEK cells) of 0.08 and a Normalized Block of hERG current at 3 µM (patch clamp, HEK cells) of 0.19.

B8: cgtx 538 (peptide)
peptide: ASCRTPKDCADPCRKETGCPNAKCMNRKCKCYGC
modifications: not checked
As to B8, in the assay with hERG, Q12809, the Normalized Block of hERG current at 600 nM (patch clamp, HEK cells) was determined as 0.05.

B9: cgtx 540 (peptide)
peptide: ASCRTPKQCYPHCKKETGCPYGKCMNRKCKCNRC
modifications: not checked
As for B9, in the assay with hERG, Q12809, the Normalized Block of hERG current at 8 µM (patch clamp, HEK cells) is 0.04 and the Normalized Block of hERG current at 16 µM (patch clamp, HEK cells) worked out at 0.13.
